Data source: PubChem BioAssay AID504811 (Drosophila RNAi Screening Center, 2011)
Purpose: 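Drosophila host factors required for Listeria to grow inside cells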 (primary screen). Cells: Drosophila SL2 cells. Reagent: long dsRNA against Drosophila genes. Conditions: infection with GFP-expressing Listeria monocytogenes; dose and duration not given. Detection: 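Cells infected with GFP-tagged Listeria were imaged, and bacterial fluorescence was judged visually against control wells as reduced, increased or clustered in dots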. Hit rule: 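Hit when the GFP pattern of infection differs visibly from controls, classed as down, up or spots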. Calls: active = hit; inactive = not a hit.
Only reagents picked out of a larger screen are listed. 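Only hits are listed, without non-hit dsRNAs or numeric scores; replicate 2 has entries for just two rows.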 A plus sign joins genes that one reagent is predicted to hit. The record does not give: the amount of reagent, the time to read-out.

With knock-down of RpL15 [DRSC20963] the results were infection phenotype, replicate 1 = stronger bacterial GFP per infected cell than controls; active.
Knock-down of alc [DRSC07062] came out at: infection phenotype, replicate 1 = stronger bacterial GFP per infected cell than controls; active.
RpS9 [DRSC11273] gave infection phenotype, replicate 1 = stronger bacterial GFP per infected cell than controls; active.
pim [DRSC03591] showed infection phenotype, replicate 1 = less bacterial GFP than control wells (fewer infected cells or weaker signal per cell); active.
Against dlg1 [DRSC20324], the values are infection phenotype, replicate 1 = stronger bacterial GFP per infected cell than controls; active.
Against Pstk + CG14210 + Tim9b [DRSC19566], the values are infection phenotype, replicate 1 = bacterial GFP seen as punctate clusters; pointing to bacteria failing to leave the vacuole; active.
Silencing of RpS27A [DRSC03421] resulted in: infection phenotype, replicate 1 = stronger bacterial GFP per infected cell than controls; active.
For RpS11 [DRSC07289], the values are infection phenotype, replicate 1 = stronger bacterial GFP per infected cell than controls; active.
Silencing of mad2 [DRSC10274] gave: infection phenotype, replicate 1 = stronger bacterial GFP per infected cell than controls; active.
For RpL30 [DRSC02087], the values are infection phenotype, replicate 1 = stronger bacterial GFP per infected cell than controls; active.
Silencing of His4:CG33883 + His4:CG33889 + His4:CG33899 + 20 more [DRSC21268] gave: infection phenotype, replicate 1 = stronger bacterial GFP per infected cell than controls; active.
Against Rpn7 [DRSC16841], the values are infection phenotype, replicate 1 = less bacterial GFP than control wells (fewer infected cells or weaker signal per cell); active.
Against Mfap1 [DRSC08154] the deposit lists infection phenotype, replicate 1 = less bacterial GFP than control wells (fewer infected cells or weaker signal per cell); active.
For RpL18 [DRSC11016] the deposit lists infection phenotype, replicate 1 = stronger bacterial GFP per infected cell than controls; active.
After knock-down of Prosbeta5 [DRSC07517] the results were infection phenotype, replicate 1 = less bacterial GFP than control wells (fewer infected cells or weaker signal per cell); active.
With knock-down of geminin [DRSC04984], the screen gave infection phenotype, replicate 1 = stronger bacterial GFP per infected cell than controls; active.
For Rab8 [DRSC11261], the values are infection phenotype, replicate 1 = less bacterial GFP than control wells (fewer infected cells or weaker signal per cell); active.
After knock-down of UQCR-C1 [DRSC15508], the record shows infection phenotype, replicate 1 = stronger bacterial GFP per infected cell than controls; active.
pes [DRSC03033] gave infection phenotype, replicate 1 = less bacterial GFP than control wells (fewer infected cells or weaker signal per cell); active.

Copied from the listing for reference:
Mfap1 [DRSC08154] — infection phenotype, replicate 1: less bacterial GFP than control wells (fewer infected cells or weaker signal per cell); activity call: active
RpL18 [DRSC11016] — infection phenotype, replicate 1: stronger bacterial GFP per infected cell than controls; activity call: active
Prosbeta5 [DRSC07517] — infection phenotype, replicate 1: less bacterial GFP than control wells (fewer infected cells or weaker signal per cell); activity call: active
